Measured values from several laboratories, pooled; numbers as filed in NIAID ChemDB.

Shared fields: toxicity to cultured cells; cell line: HepG2.2.15; endpoint: CC50

Conditions beyond the fields shown may differ between rows. CCn is the concentration with n% toxicity to the cells. An empty or dashed field is not shown.

compound	read by	result
CCOC(=O)c1c(CSc2ccc(Cl)cc2)nc2c(O)c(CN3CCN(C)CC3)c(Br)cn12	MTT	19.4 µM
COc1ccc(C(=O)N(C)CC(=O)Nc2ccc(Cl)cc2Cl)cc1	MTS	311 µM
CC(C)=CCC[C@]1(C)CC[C@]2(C)[C@H]3CC[C@@]4(C)[C@@H](CC[C@H](O)[C@@H]4C)[C@]3(C)CC[C@@]2(C)C1	sulforhodamine	137.7 µM
CCOC(=O)C1=C(CN2CC(F)(F)[C@H]3[C@@H]2CCN3C[C@](C)(O)C(=O)O)NC(c2nccs2)=N[C@H]1c1cccc(F)c1F	WST / absorbance	>50 µM
C[C@@]12COC(=O)[C@@]1(C)[C@@H](O)C13CC(=O)O[C@@]1(C)CC[C@@]32O	XTT	2540 µM
O=C(CNC(=O)c1ccccn1)Nc1ccc(Cl)nc1Cl	MTS	227 µM
C[C@H](C[C@H](OC(=O)c1ccc(Cl)cc1Cl)[C@@H](OC(=O)c1ccc(Cl)cc1Cl)C(C)(C)O)C1=C2C[C@H](OC(=O)c3ccc(Cl)cc3Cl)[C@H]3[C@@]4(C)CCC(=O)C(C)(C)[C@@H]4CC[C@]3(C)[C@@]2(C)CC1		>1200 µM
CC1(C)[C@@H](O)CC[C@]2(C)[C@H]3C(=O)C=C4[C@@H]5C[C@@](C)(C(=O)OCc6ccc(Br)cc6F)CC[C@]5(C)CC[C@@]4(C)[C@]3(C)CC[C@@H]12		>1430 µM
CN(CC(=O)Nc1ccc(Cl)cc1Cl)C(=O)c1ccccn1	MTS	276 µM
CC1(C)[C@@H](O)CC[C@]2(C)[C@H]3C(=O)C=C4[C@@H]5C[C@@](C)(C(=O)OCCCCCCO)CC[C@]5(C)CC[C@@]4(C)[C@]3(C)CC[C@@H]12		67.28 µM
CCOC(=O)c1c(CSc2cccc(OC)c2)nc2c(O)c(CN3CCOCC3)c(Br)cn12	MTT	17.6 µM
CC(=O)NCC(=O)O[C@@H](C[C@@H](C)C1=C2C[C@H](OC(=O)CNC(C)=O)[C@H]3[C@@]4(C)CCC(=O)C(C)(C)[C@@H]4CC[C@]3(C)[C@@]2(C)CC1)[C@@H](OC(=O)CNC(C)=O)C(C)(C)O		270 µM
COC(=O)C1=C(CN2CC(F)(F)[C@@H]3[C@H]2CON3C[C@H](O)C(C)(C)C(=O)O)NC(c2nccs2)=N[C@H]1c1ccc(F)cc1Cl	WST / absorbance	>100 µM
CC1(C)[C@@H](O)CC[C@]2(C)[C@H]3C(=O)C=C4[C@@H]5C[C@@](C)(C(=O)OCc6cc(F)cc(F)c6)CC[C@]5(C)CC[C@@]4(C)[C@]3(C)CC[C@@H]12		>1230 µM
C=C(C)[C@H](OC(=O)COC)[C@H](C[C@@H](C)[C@]12CC[C@@]3(C)[C@@]1(C[C@H](OC(=O)COC)[C@H]1[C@@]4(C)CCC(=O)C(C)(C)[C@@H]4CC[C@@]13C)O2)OC(=O)COC		>1300 µM
COC(=O)C1=C(CN2CC(F)(F)[C@@H]3[C@H]2CON3C[C@@H](OC)C(C)(C)C(=O)O)NC(c2nccs2)=N[C@H]1c1ccc(F)c(F)c1F	WST / absorbance	41.7 µM
C/C=C/C(=O)O[C@@H](C[C@@H](C)C1=C2C[C@H](OC(=O)/C=C/C)[C@H]3[C@@]4(C)CCC(=O)C(C)(C)[C@@H]4CC[C@]3(C)[C@@]2(C)CC1)[C@@H](OC(=O)/C=C/C)C(C)(C)O		>850 µM
CCOC(=O)c1c(CSc2ccc(F)cc2)nc2c(O)c(CN3CCCC3)c(Br)cn12	MTT	35.3 µM
CCOC(=O)C1=C(CN2CC(F)(F)[C@H]3[C@@H]2CCN3C[C@@](C)(O)C(=O)O)NC(c2nc(C)cs2)=N[C@H]1c1cccc(F)c1C	WST / absorbance	25 µM
CCOCC(=O)O[C@@H](C[C@@H](C)[C@]12CC[C@@]3(C)[C@@]1(C[C@H](OC(=O)COCC)[C@H]1[C@@]4(C)CCC(=O)C(C)(C)[C@@H]4CC[C@@]13C)O2)[C@@H](OC(=O)COCC)C(C)(C)O		250 µM

The last 2 rows once more:

compound	read by	result
CCOC(=O)C1=C(CN2CC(F)(F)[C@H]3[C@@H]2CCN3C[C@@](C)(O)C(=O)O)NC(c2nc(C)cs2)=N[C@H]1c1cccc(F)c1C	WST / absorbance	25 µM
CCOCC(=O)O[C@@H](C[C@@H](C)[C@]12CC[C@@]3(C)[C@@]1(C[C@H](OC(=O)COCC)[C@H]1[C@@]4(C)CCC(=O)C(C)(C)[C@@H]4CC[C@@]13C)O2)[C@@H](OC(=O)COCC)C(C)(C)O		250 µM